Experimental data: PubChem BioAssay AID1259414 (Drosophila RNAi Screening Center, 2018)
Aim: 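Fly genes that alter Wolbachia amount inside host cells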 (primary screen). Cell system: Drosophila JW18 cells infected with Wolbachia. Reagents: long dsRNA against Drosophila genes, 0.25 µg dsRNA per well of a 384-well plate. Timing: 5 days. Treatment: cells persistently infected with Wolbachia before knock-down; no added drug. Read-out: 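Imaged fluorescence in situ signal for Wolbachia 23S rRNA per DAPI-counted host cell, given as a robust z-score within each plate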. Reading the numbers: Wolbachia per cell robust z: higher = more Wolbachia per host cell than the plate typical. Active means: 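Active if absolute robust z reaches 1.5 in two or more of three replicates, leaving out multi- or no-target dsRNAs, genes unexpressed in JW18 and A1 wells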.
In all, the deposit lists about 24,000 reagents; shown is an unselected part of those that have a named target and a result. Over the whole deposit, about 1,210 (5%) are marked active. 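Inactive calls also include excluded dsRNAs with several or no targets, genes unexpressed in JW18, and well A1, regardless of score.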 Unmarked entries are inactive. Names joined by + are all predicted targets of the reagent.

gene | amplicon | Wolbachia per cell robust z, rep 1 | Wolbachia per cell robust z, rep 2 | Wolbachia per cell robust z, rep 3
CG12531 | DRSC19466 | -0.174 | 0.695 | 0.229
CG12531 | DRSC27679 | 0.805 | 1.11 | 1.04
ND-39 | DRSC11791 | -2.15 | 0.232 | 1.2
ND-39 | DRSC28392 | 0.568 | -0.67 | -0.499
CG7488 | DRSC16250 | 1.18 | -0.409 | 0.189
CG14915 | DRSC02399 | -0.512 | -0.363 | -0.676
CG14915 | DRSC26295 | -0.515 | -0.237 | 0.397
eIF4E7 | DRSC17782 | -0.0307 | -0.411 | -1.03
eIF4E7 | DRSC18623 | -0.203 | 0.554 | 0.585
CG14301 | DRSC14780 | -5.92 | -5.04 | -0.937
CG2147 | DRSC18211 | 1.42 | -0.0254 | 0.994
CG13544 | DRSC04186 | 0.24 | 0.138 | -0.00155
CG13544 | DRSC30038 | -1.22 | -0.609 | 0.326
dysc | DRSC10273 | 0.823 | 0.444 | 0.579
dysc | DRSC11040 | 0.841 | -0.473 | -2.52
dysc | DRSC22334 | -0.112 | -0.334 | 0.471
dysc | DRSC22824 | -0.18 | -0.69 | 0.106
dysc | DRSC23128 | -1.25 | 0.413 | 0.851
dysc | DRSC26188 | -2.91 (active) | -7.58 | -0.727
CG13461 | DRSC10008 | 1.24 | 1.01 | 1.17
CG13461 | DRSC24462 | 0.13 | -0.195 | -0.811
jbug | DRSC03952 | 0.0443 | 0.626 | -1.5
jbug | DRSC04114 | -1.22 | -0.948 | -1.05
jbug | DRSC04167 | 0.337 | -3.51 | 0.162
jbug | DRSC04388 | 1.47 | 1.29 | 1.07
jbug | DRSC29978 | 0.61 | -0.139 | -0.578
Dera | DRSC07207 | 0.497 | -0.0413 | -1.27
Dera | DRSC21336 | 0.347 | 0.421 | 0.58
Dera | DRSC26996 | -0.109 | -1.14 | -0.0409

Laid out differently: results already given
CG7488 [DRSC16250] | Wolbachia per cell robust z, rep 1 = 1.18; Wolbachia per cell robust z, rep 2 = -0.409; Wolbachia per cell robust z, rep 3 = 0.189
CG14915 [DRSC02399] | Wolbachia per cell robust z, rep 1 = -0.512; Wolbachia per cell robust z, rep 2 = -0.363; Wolbachia per cell robust z, rep 3 = -0.676
CG14915 [DRSC26295] | Wolbachia per cell robust z, rep 1 = -0.515; Wolbachia per cell robust z, rep 2 = -0.237; Wolbachia per cell robust z, rep 3 = 0.397
eIF4E7 [DRSC17782] | Wolbachia per cell robust z, rep 1 = -0.0307; Wolbachia per cell robust z, rep 2 = -0.411; Wolbachia per cell robust z, rep 3 = -1.03
eIF4E7 [DRSC18623] | Wolbachia per cell robust z, rep 1 = -0.203; Wolbachia per cell robust z, rep 2 = 0.554; Wolbachia per cell robust z, rep 3 = 0.585
CG14301 [DRSC14780] | Wolbachia per cell robust z, rep 1 = -5.92; Wolbachia per cell robust z, rep 2 = -5.04; Wolbachia per cell robust z, rep 3 = -0.937
CG2147 [DRSC18211] | Wolbachia per cell robust z, rep 1 = 1.42; Wolbachia per cell robust z, rep 2 = -0.0254; Wolbachia per cell robust z, rep 3 = 0.994
CG13544 [DRSC04186] | Wolbachia per cell robust z, rep 1 = 0.24; Wolbachia per cell robust z, rep 2 = 0.138; Wolbachia per cell robust z, rep 3 = -0.00155
CG13544 [DRSC30038] | Wolbachia per cell robust z, rep 1 = -1.22; Wolbachia per cell robust z, rep 2 = -0.609; Wolbachia per cell robust z, rep 3 = 0.326
dysc [DRSC10273] | Wolbachia per cell robust z, rep 1 = 0.823; Wolbachia per cell robust z, rep 2 = 0.444; Wolbachia per cell robust z, rep 3 = 0.579
dysc [DRSC11040] | Wolbachia per cell robust z, rep 1 = 0.841; Wolbachia per cell robust z, rep 2 = -0.473; Wolbachia per cell robust z, rep 3 = -2.52

More reagents:
gene | amplicon | Wolbachia per cell robust z, rep 1 | Wolbachia per cell robust z, rep 2 | Wolbachia per cell robust z, rep 3
Tusp | DRSC15838 | 0.495 | -3.62 | 0.169
CG33985 | DRSC37800 | 1.52 | 1.49 | 3.68
CG32188 | DRSC09510 | 0.669 | 0.652 | -0.704
lncRNA:CR34046 | DRSC14075 | -6.66 | -1.07 | -1.22
lncRNA:CR34046 | DRSC30016 | -1.35 | -0.793 | -0.471
Tsf1 | DRSC20296 | -0.305 | -0.139 | 0.951
Tsf1 | DRSC28246 | -0.93 | -0.604 | -0.123
CG12990 | DRSC19510 | 0.0906 | -2.14 | -0.531
Obp49a | DRSC22562 | 0.545 | 0.717 | 1.32
Obp49a | DRSC25703 | 1.01 | 0.00589 | -0.593
CG6048 | DRSC18398 | 0.887 | 0.894 | 1
CG6048 | DRSC29218 | 0.682 | -0.116 | 0.579
Sps1 | DRSC07549 | 0.591 | 0.984 | 0.915
Sps1 | DRSC41456 | 0.575 | 0.424 | 1.34
Rs1 | DRSC05945 | 1.29 | 0.456 | -9.84
Rs1 | DRSC26592 | 0.998 | -0.675 | -0.119
pths | DRSC03171 | -9.55 | -1.25 | 0.808
CG32845 | DRSC07867 | 0.241 | 2.31 | 0.45
CG32845 | DRSC28003 | -3.32 | 0.116 | -0.943
mRpL49 | DRSC19908 | -0.151 | -0.507 | -0.614
psd | DRSC03131 | -0.462 | -0.67 | 0.165
psd | DRSC25415 | -0.0809 | -0.242 | 0.368
CG34200 | DRSC38889 | 0.154 | 0.144 | -0.052
CG17140 + CG17139 | DRSC02585 | -2.12 | 0.442 | -1.27
CG17140 + CG17139 | DRSC02586 | 0.147 | -1.84 | -0.158
Obp56e | DRSC07188 | -4.24 | -0.676 | -0.0235
CG7387 | DRSC10833 | -0.153 | 0.52 | -0.423
E5 | DRSC13000 | 0.626 | 0.88 | 0.119
E5 | DRSC23157 | -1.43 | -0.0983 | 0.231
E5 | DRSC28326 | -1.53 | -0.869 | -0.574
mTerf5 | DRSC16209 | -0.734 | -1.29 | -0.367
mTerf5 | DRSC41507 | 0.668 | -0.341 | 0.35
snoRNA:Me28S-C3420b + RpS11 | DRSC07396 | -2.36 | -4.5 | 0.025
Fdx2 | DRSC08306 | -1.6 | -1.09 | -1
Osi8 | DRSC12277 | 0.268 | -2.49 | 0.317
Osi8 | DRSC27462 | 0.809 | 0.54 | 0.808
Csk | DRSC12861 | -0.152 | -0.156 | 0.199
Csk | DRSC23272 | 0.151 | 0.342 | 1.06
Csk | DRSC26697 | 0.638 | 0.781 | -0.703
